Reference: paper PMC8899467 (Frontiers in Pharmacology, 2022)

Sequences of proteins named here, by UniProt entry; tags and fusion partners are left off. Residues count along the entry.
UniProt P30431, 151-571 limits assumed: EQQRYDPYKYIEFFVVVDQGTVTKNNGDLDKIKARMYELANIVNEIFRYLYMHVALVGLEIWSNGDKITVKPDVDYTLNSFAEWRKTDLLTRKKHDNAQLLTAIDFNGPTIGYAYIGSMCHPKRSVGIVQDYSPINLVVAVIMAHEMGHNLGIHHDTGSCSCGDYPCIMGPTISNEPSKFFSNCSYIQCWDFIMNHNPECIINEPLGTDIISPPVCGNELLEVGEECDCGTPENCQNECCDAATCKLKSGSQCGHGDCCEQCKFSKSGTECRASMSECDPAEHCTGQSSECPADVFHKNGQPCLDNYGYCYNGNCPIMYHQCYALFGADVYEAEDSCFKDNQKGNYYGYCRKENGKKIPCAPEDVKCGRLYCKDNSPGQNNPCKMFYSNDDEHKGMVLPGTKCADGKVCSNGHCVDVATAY

What was measured:
[1] = target: T1, jararhagin (Bothrops jararaca, UniProt P30431); assay: fibrinogen degradation (SDS-PAGE); Trp fluorescence change; details: bovine fibrinogen as substrate; fluorescence at 0.07375-1.18 mM SA, pH 8.0, 1 mM CaCl2
[2] = target: T1, jararhagin; assay: intrinsic Trp fluorescence quenching; details: 0.2 mg/ml jararhagin, 0.07375-1.18 mM rutin, 20 mM Tris, 140 mM NaCl, 1 mM CaCl2, pH 8.0, 1% DMSO

SMILES | fibrinogen degradation (SDS-PAGE); Trp fluorescence change [1] | intrinsic Trp fluorescence quenching [2]
O=C(O)CCC(=O)O | RS and SA decreased the degradation of fibrinogen by jararhagin | –
C[C@@H]1O[C@@H](OC[C@H]2O[C@@H](Oc3c(-c4ccc(O)c(O)c4)oc4cc(O)cc(O)c4c3=O)[C@H](O)[C@@H](O)[C@@H]2O)[C@H](O)[C@H](O)[C@H]1O [rutin] | – | rutin and RS decreased the fluorescence of Trp residues in BjV proteins (Figure 7A) and jararhagin
